Laboratory results: PMC5890194
Construct, isoform or probe ends are uncertain for at least one entry.

Columns and labels:
[1] = tested on: His-CpxR-P (CpxR phosphorylated with acetyl phosphate) (Actinobacillus pleuropneumoniae S4074); test: DNase I footprinting; conditions: 1.0 ug protein, 400 ng probe, recombinant protein, residues 1-242, protein details: His (pET-28a), label: FAM, probe letters rebuilt from the primers and the genome, part of a longer molecule
His-RpoE = His-RpoE (UniProt A0ABM6X141); test: EMSA; conditions: 1.0-3.0 ug protein, 40 ng probe, abolished by 4 ug unlabeled competitor; recombinant protein; residues 1-192; protein details: His; label: FAM; probe letters rebuilt from the primers and the genome; part of a longer molecule

| Sequence | binding result [1] | binding result (His-RpoE) |
| --- | --- | --- |
| TAAAAAGATAAGATAAGCGGTCAGATTTGATGGAAATTTTGTAAAAATCCAGTAAAATCTGACCGCTTTCAGTCATTAAATAAGAAAATATTGATACGATTATATTTAACCGGTTTTTTTATATAACATTGATTGAATTTTTACACATAAGTAGTTTAGTAAAATTATAAATATTTGTAGCATCCTTAGTCTTGTTATTGAATTTTATTAAAGTATTTGTAAATAATTGAGTAATTTATTCTTTATATGAACTTTTCATTTTTGTTACACACT (double strand) [rpoE promoter 273-bp footprinting probe] | binds | – |
| TAATTAAGACGTCCGACTTGCTTTATTTAAAATTTTTGGAACTTTTAAATAGTAATTCATTCAAAGGATGTGATGAATAGGGATTTTTATATCTGAATAAAGATGTGTAAATTTATATTTGTCAAGTATGAAGGCTATTATAACTACGTTATATGTTAATGTGGCGGTATGTTGTTTGACTATATTTATAGTGTAATTCGATTATATAACAGTATGGATTTGTTATAGGTTTTAGCTTTTTTACTTAGGTAAAAGATACGATGCTAAAGATCGATTATATCTTCCCTTCTTTAATGCTATCAGCAATTCATAATACTAAGACAATATTTATTGAAATTAAGTTCAATACAAAATGGCGGAACCTCGATAATTTCTATTGTTAGTTCTGATGCTTAGTTTTTTGCTTATGGCTCAAGGTGAATATAAAAAGGATGTCTAACAGCCTCTCCATGCTCTTTATCCGTTAATTTAAGCTGTTACGTTTGTATGCTTCCGTAATGTATATAAGAGAAAGTAGTCTTTATGCGATTAAGAATGC (double strand) [pgaABCD promoter probe] | – | binds |
